PubChem BioAssay AID624099, ICCB-Longwood, 2012
In all, the deposit lists about 21,000 reagents; this is a part drawn at random. Of all reagents, 497 (2.4%) are marked active. 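Higher z means weaker E2 silencing; only reporter increases were scored, and knock-downs that hurt cell survival may mask genuine repressor factors.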

- Aim: 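Human genes that papillomavirus E2 requires to repress the HPV18 LCR promoter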 (primary screen)
- Cell system: human C33A cervical carcinoma cells (HPV-negative) stably expressing BPV1 E2 and an HPV18 LCR luciferase reporter
- Reagent: siRNA pool against human genes, 40 nM
- Time to read-out: 72 h
- Measurement: 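Per-well luciferase luminescence, z-scored on each plate against the plate mean and SD with control wells left out, then averaged across three replicate plates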
- Scale: mean z-score and z-score: higher = stronger reporter signal, weaker E2 silencing
- Call rule: 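Hit if mean z-score reaches 2 and two or more of three replicate z-scores also reach 2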

| Target gene | PubChem SID | mean z-score | z-score, replicate A | z-score, replicate B | z-score, replicate C | activity call |
| --- | --- | --- | --- | --- | --- | --- |
| TGIF2LX (GeneID 90316) | SID134322973 | 0.67 | 0.43 | 0.87 | 0.71 | inactive |
| HSPA1L (GeneID 3305) | SID134316405 | -0.8 | -0.72 | -0.74 | -0.96 | inactive |
| CCN3 (GeneID 4856) | SID134315027 | 1.82 | 1.85 | 1.8 | 1.82 | inactive |
| MYADML2 (GeneID 255275) | SID134325564 | -0.38 | -0.66 | -0.32 | -0.15 | inactive |
| TIAM1 (GeneID 7074) | SID134310172 | -0.41 | -0.62 | -0.32 | -0.3 | inactive |
| AIPL1 (GeneID 23746) | SID134314759 | -1.11 | -1.16 | -1.06 | -1.12 | inactive |
| PNRC2 (GeneID 55629) | SID134319700 | -1.02 | -1.19 | -0.76 | -1.1 | inactive |
| WDR37 (GeneID 22884) | SID134324099 | -0.55 | -0.7 | -0.32 | -0.64 | inactive |
| PQBP1 (GeneID 10084) | SID134316976 | -0.69 | -0.72 | -0.51 | -0.83 | inactive |
| HMX2 (GeneID 3167) | SID134328184 | -0.93 | -0.94 | -0.84 | -0.99 | inactive |
| FOXP1 (GeneID 27086) | SID134310342 | -1.95 | -1.88 | -2.06 | -1.91 | inactive |
| LOC388174 (retired record) (GeneID 388174) | SID134328590 | 1.39 | 1.09 | 1.75 | 1.33 | inactive |
| PCBD1 (GeneID 5092) | SID134313605 | 0.19 | 0.67 | 0.03 | -0.14 | inactive |
| RPUSD2 (GeneID 27079) | SID134319936 | -1.27 | -1.71 | -1.31 | -0.78 | inactive |
| LINC01801 (GeneID 400685) | SID134328897 | -0.8 | -0.9 | -0.61 | -0.88 | inactive |
| NODAL (GeneID 4838) | SID134321682 | -1.26 | -1.25 | -1.21 | -1.32 | inactive |
| PORCN (GeneID 64840) | SID134314342 | -0.54 | -0.42 | -0.41 | -0.78 | inactive |
| LOC339793 (retired record) (GeneID 339793) | SID134325478 | 0.65 | 0.63 | 0.6 | 0.72 | inactive |
| SELENOH (GeneID 280636) | SID134320543 | -1.88 | -1.55 | -2.1 | -1.99 | inactive |
| USP17L2 (GeneID 377630) | SID134326893 | 0.83 | – | 0.89 | 0.76 | inactive |
| TAS2R41 (GeneID 259287) | SID134321686 | 0.18 | 0.02 | 0.27 | 0.26 | inactive |
| SLC2A3P2 (GeneID 391045) | SID134326999 | 0.92 | 0.73 | 1.05 | 0.97 | inactive |
| ZNF532 (GeneID 55205) | SID134312132 | 3.22 | 3.47 | 3.23 | 2.95 | active |
| LILRA1 (GeneID 11024) | SID134323623 | 0.24 | 0.16 | 0.33 | 0.22 | inactive |
| CTSL3P (GeneID 392360) | SID134328045 | -0.82 | -0.91 | -0.68 | -0.86 | inactive |
| MGAT4D (GeneID 152586) | SID134325925 | -0.07 | -0.08 | 0.08 | -0.21 | inactive |
| BRWD1 (GeneID 54014) | SID134315331 | 0.07 | 0.16 | -0.01 | 0.06 | inactive |
| TESMIN (GeneID 9633) | SID134316276 | 0.92 | 0.84 | 0.83 | 1.09 | inactive |
| KRT8P41 (GeneID 283102) | SID134326820 | 0.15 | -0.22 | 0.51 | 0.15 | inactive |
| GCNT3 (GeneID 9245) | SID134316235 | 0.23 | 0.62 | 0.02 | 0.05 | inactive |
| UBE2D1 (GeneID 7321) | SID134314141 | 0.57 | 0.43 | 0.91 | 0.38 | inactive |
| LOC390508 (retired record) (GeneID 390508) | SID134328524 | -0.07 | -0.26 | -0.23 | 0.28 | inactive |
| LOC339077 (retired record) (GeneID 339077) | SID134325295 | -2.61 | -2.21 | -2.76 | -2.86 | inactive |
| TOGARAM1 (GeneID 23116) | SID134325224 | 1.24 | 0.93 | 1.05 | 1.73 | inactive |
| PEX16 (GeneID 9409) | SID134316256 | 0.32 | 0.42 | 0.52 | 0.01 | inactive |
| TRPM7 (GeneID 54822) | SID56479060 | -0.32 | -0.17 | -0.61 | -0.16 | inactive |
| C2orf69 (GeneID 205327) | SID134322482 | 0.25 | 0.67 | -0.18 | – | inactive |
| ANKRD28 (GeneID 23243) | SID134325699 | 0.6 | 0.43 | 0.5 | 0.88 | inactive |
| FAM74A4 (GeneID 401508) | SID134329662 | -0.24 | 0.14 | -0.39 | -0.47 | inactive |
| UQCRC1 (GeneID 7384) | SID134310611 | -0.56 | -0.44 | -0.47 | -0.77 | inactive |
| C2orf42 (GeneID 54980) | SID134324495 | 1.22 | 0.82 | 1.33 | 1.53 | inactive |
| SPHAR (retired record) (GeneID 10638) | SID134323737 | 0.09 | 0.05 | 0.12 | 0.11 | inactive |
| LOC388927 (retired record) (GeneID 388927) | SID134327125 | 0.58 | 1.11 | 0.19 | 0.44 | inactive |
| PGR (GeneID 5241) | SID134309884 | 3.92 | 3.78 | 3.92 | 4.05 | active |
| LGALSL (GeneID 29094) | SID134324364 | 1.64 | 1.9 | 1.82 | 1.2 | inactive |
| ITIH2 (GeneID 3698) | SID134323388 | 0 | -0.11 | 0.23 | -0.1 | inactive |
| KRT40 (GeneID 125115) | SID134322492 | 0.4 | 0.48 | 0.3 | 0.42 | inactive |
| LINC00342 (GeneID 150759) | SID134321881 | 3.07 | 4.01 | 2.47 | 2.72 | active |
| LOC389290 (retired record) (GeneID 389290) | SID134327558 | 0.81 | 1.21 | 0.61 | 0.62 | inactive |
| TMPRSS7 (GeneID 344805) | SID134325742 | 0.43 | 0.23 | 0.25 | 0.8 | inactive |
| TXNDC5 (GeneID 81567) | SID134315169 | -0.2 | -0.54 | -0.32 | 0.27 | inactive |
| ZNF233 (GeneID 353355) | SID134322416 | -0.05 | 0.22 | -0.42 | 0.05 | inactive |
| CIT (GeneID 11113) | SID56478810 | 1.98 | 1.95 | 2.31 | 1.68 | inactive |
| RDH12 (GeneID 145226) | SID134313198 | 1.1 | 1.3 | 0.74 | 1.27 | inactive |
| VDAC3 (GeneID 7419) | SID134324483 | 0.57 | 0.34 | 1.02 | 0.34 | inactive |
| TEAD4 (GeneID 7004) | SID134323351 | 0.9 | 0.81 | 1.23 | 0.67 | inactive |
| IMPG2 (GeneID 50939) | SID134324520 | 1.6 | 1.61 | 1.59 | 1.61 | inactive |

Reformatted: entries from further up
Target gene | PubChem SID | mean z-score | z-score, replicate A | z-score, replicate B | z-score, replicate C | activity call
HSPA1L (GeneID 3305) | SID134316405 | -0.8 | -0.72 | -0.74 | -0.96 | inactive
CCN3 (GeneID 4856) | SID134315027 | 1.82 | 1.85 | 1.8 | 1.82 | inactive
MYADML2 (GeneID 255275) | SID134325564 | -0.38 | -0.66 | -0.32 | -0.15 | inactive
TIAM1 (GeneID 7074) | SID134310172 | -0.41 | -0.62 | -0.32 | -0.3 | inactive
AIPL1 (GeneID 23746) | SID134314759 | -1.11 | -1.16 | -1.06 | -1.12 | inactive
PNRC2 (GeneID 55629) | SID134319700 | -1.02 | -1.19 | -0.76 | -1.1 | inactive
